PubChem BioAssay AID573 (SRMLSC, 2007)
Only a part is listed here, and it is no random draw. Active and inactive are the calls of the source.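 The calls were made as follows: active = growth inhibition at or above a cutoff equal to the mean over every tested compound plus 3 SD (cut at about 60% in these data); inactive = the rest.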

Assay: E. coli ΔtolC antibacterial growth inhibition – strain BW25113 ΔtolC::kan, 384-well, primary screen (AID 573)
Details: E. coli BW25113 tolC mutant growth, OD615; stronger effect = higher value; screened at 10 µM (by protocol)
In short: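 Signal: optical density read at 615 nm; Assay system: E. coli ΔtolC::kan strain BW25113; Times: 20 h incubation with compound, 37 °C; Dosing: 10 µM final, single dose.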

SMILES | growth inhibition
O=P(Nc1nccs1)(c1ccccc1)c1nc2ccccc2s1 (stereo not given) | inactive: 7.27%
CCOP1(=S)c2c(C)nn(CCC#N)c2N=C(c2ccccc2F)N1C (stereo not given) | inactive: 1.98%
CCOP1(=S)c2c(C)nn(CCC#N)c2N=C(c2ccc(F)cc2)N1C (stereo not given) | inactive: -2.64%
Cc1cccc(OCC(=O)OC2CN3CCC2CC3)c1 (stereo not given) | inactive: 7.01%
Clc1n[nH]nc1-c1nn[nH][15n]1 | inactive: -15.7%
O=P1(Nc2ccccn2)COc2ccccc2OC1 | inactive: -11.6%
Cc1nn(-c2ccccc2)c2c1P(=O)(N1CCOCC1)N(C)C(c1ccccc1)=N2 (stereo not given) | inactive: 2.98%
Cc1ccc(OCC(=O)OC2CN3CCC2CC3)cc1 (stereo not given) | inactive: 8.99%
O=P1(Nc2ccc(Br)cn2)COc2ccccc2OC1 | inactive: 6.85%
O=P1(Nc2ncccn2)COc2ccccc2OC1 | inactive: -16.4%
O=C(COc1ccccc1)OC1CN2CCC1CC2 (stereo not given) | inactive: -18.9%
COP1(=S)c2c(C)nn(CCC#N)c2N=C(c2ccc(F)cc2)N1C (stereo not given) | inactive: 6.61%
O=C(OC1CN2CCC1CC2)C12CC3CC(CC(C3)C1)C2 (stereo not given) | inactive: -34%
Cc1c2non([O-])c-2c(C)[n+](=O)[n+]1[O-] | inactive: 14.5%
CCc1nc2c(n1)c1c(non1O)c1c2no[n+]1[O-] | inactive: 5.44%
O=C(OC1CN2CCC1CC2)c1cccc(Cl)c1 (stereo not given) | inactive: 9.84%
c1nnnn1CCn1cnnn1 | inactive: -2.28%
O=P(Nc1nccs1)(c1ccccc1)c1ccccc1 | inactive: 3.82%
O=P1(Nc2nc3ccc(Cl)cc3s2)COc2ccccc2O1 (stereo not given) | inactive: -10.6%
COC(=O)c1cc2c(s1)N=C(c1ccccc1)N(C)P2(=O)N1CCOCC1 (stereo not given) | inactive: -1.56%
